Data taken from ChEMBL document CHEMBL3988442, “University of Dundee, Small-Polar-MMV Screening Library” (2021).

Values are the deposited “Percent Effect”, in %.
The record does not define 0% and 100%; most values in the screen are far below 50% and negative numbers occur (in some assays of this library far below -100).
This is part of a subset picked to be rich in strong results.

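Phenotypic screen: M. tuberculosis growth, glucose 7H9 medium, 3 days; the read-out is not stated. Concentration: 500 µM. The record gives no direction; compounds that gave an IC50 in retests scored well above the rest, so higher reads as more growth inhibition. Of about 18,000 compounds tested this way, about 1,400 (7.9%) reached 50% or more in at least one test.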

| Compound | Percent Effect |
|---|---|
| `CN(C(=O)c1ccncc1)c1ncccc1Br` | 0.8151 |
| `NC1CC12CCC(F)(F)CC2` (centres undefined) | 12.5 |
| `CN(C)C(CNC(=O)NCc1cc[nH]n1)c1ccsc1` (centres undefined) | 8.012 |
| `NCCNS(=O)(=O)c1ccccc1` | 6.508 |
| `COc1ccc(C(=O)NC2=NCCS2)cn1` | 16.09 |
| `CNc1nnc(-c2ccccc2)s1` | 60.59 |
| `CC(c1ccccn1)N(C)S(C)(=O)=O` (centres undefined) | 7.752 |
| `COCc1ccc(SCC(=O)N(C)C)cc1` | 52.43 |
| `CNC(=O)Cc1csc(NC(=O)c2cccs2)n1` | 25.96 |
| `Cc1ccncc1S(N)(=O)=O` | 9.524 |
| `CCNC1=NN=C(c2ccc3c(c2)OCCCO3)CS1` | 64.82 |
| `COc1ccccc1CNC(=O)COc1nc(C)no1` | 10.42 |
| `COc1cccc2c1CCNCC2` | 69.93 |
| `COc1cccc(C(CO)Nc2ncccc2C#N)c1` (centres undefined) | 24.5 |
| `CCN(CC)C(=O)COC(=O)c1ccc(O)cc1O` | 20.67 |
| `CNC(=O)c1ccc(C#N)cc1` | 5.431 |
| `COc1cc(F)cc(CN)c1` | 6.412 |
| `CCCc1ccc(CN2C[C@H](OCC)[C@@H](O)C2)o1` | 71.11 |
| `COCc1noc(CN(C(C)C)C(C)C)n1` | 5.371 |
| `CCN1CCN(C(=O)CSc2ccncc2)C(C)C1=O` (centres undefined) | 16.07 |
| `Cc1cc(CN(C)S(=O)(=O)c2c(C)noc2C)no1` | 0.9692 |
| `CN1CCCC(NC(=O)NCCc2ccncc2)C1` (centres undefined) | 7.77 |
| `CC(CN)CNC(=O)c1ccc(C(F)(F)F)cc1` (centres undefined) | 51.73 |
| `CNC(=O)Nc1ccc(N2CCOCC2)nc1` | -293.5 |
| `CCC1c2ccsc2CCN1CC(=O)N(C)C` (centres undefined) | 27.68 |
| `O=C(NCC1COCCO1)N(Cc1cccs1)C1CC1` (centres undefined) | 30.08 |
| `O=C(COCC(F)(F)F)NCc1ccccn1` | 41.3 |
| `Nc1cc(=O)[nH]n1-c1ccc(C(F)(F)F)cn1` | 61.33 |
| `COCCSCc1cccc(NC(=O)C(C)N)c1` (centres undefined) | 52.87 |
| `O=C1CN(C(=O)c2ccccn2)c2ccncc2N1` | 4.821 |
| `N#CCc1ccc(CN)cc1` | 78.68 |
| `CC(CNC(=O)c1ccc(Cl)cn1)Cn1ccnc1` (centres undefined) | 81.97 |
| `CC(CN1CCN(c2ccccn2)CC1)NS(C)(=O)=O` (centres undefined) | 16.39 |
| `CC(CC(=O)NCc1ccccc1)n1cccn1` (centres undefined) | 9.922 |
| `C=C(C)COc1c(Cl)cc(C(N)=O)cc1OC` | 83.29 |
| `O=C(Oc1nsnc1N1CCOCC1)c1ccccc1` | -4.035 |
| `CCc1ccc(S(=O)(=O)N2CC[C@@H](N)C2)cc1CC` | 73.3 |
| `CN(C)C(=O)CN1CCCC1c1ccsc1` (centres undefined) | 9.319 |
| `O=C1CCN(Cc2cc(Br)cc3c2OCC3)CCN1` | -6.452 |
| `CN(C)C(=O)CCCn1ccc(N)n1` | -3.803 |
| `Cc1csc(CNC(=O)Cn2nc(C)cc2C)n1` | 8.253 |
| `CC(Sc1nnc[nH]1)C(=O)Nc1ccc(F)cc1F` (centres undefined) | -26.21 |
| `COc1ccccc1C(N)c1noc(C)n1` (centres undefined) | 10.55 |
| `Cc1cccc(N2CCC(N(C)CCCO)CC2)n1` | 16.87 |
| `CN(Cc1cccnc1)Cc1cc(C#N)cs1` | 48.28 |
| `CN(Cc1ccco1)C(=O)CN1CCCCC1` | 0.132 |
| `CNS(=O)(=O)c1ccc(NC2CCC2)cc1OC` | 3.478 |
| `N#CCCN1CCC(C(=O)NCc2ccccc2)CC1` | 2.514 |
| `O=C(NCCN1CCOCC1)c1cc(C2CC2)[nH]n1` | 13.61 |
| `CN1CCCC(N2C(=O)c3ccccc3C2=O)C1=O` (centres undefined) | 7.084 |
| `CC(NC(=O)CSc1nc(=O)[nH]n1C)c1cccs1` (centres undefined) | 85.31 |
| `CCNC(=O)C1CCN(C(=O)CSc2nnc(N)s2)C1` (centres undefined) | 8.776 |
| `CCN(C(=O)CSc1ccncc1)[C@H]1COC[C@@H]1O` | -5.523 |
| `CN(C)[C@H]1CN(Cc2cccc(OCCO)c2)C[C@@H]1O` | -10.54 |
| `COc1ccc2c(c1)CCN2C(=O)[C@@H](N)CC(C)C` | 6.383 |
| `Nc1nc(CCCNC(=O)CN2CCCC2)cs1` | 5.478 |
| `O=C(CC1C=CCC1)NCCNc1cnccn1` (centres undefined) | 15.55 |
| `C1CN(C2CNC2)CCO1` | 0.9005 |
| `CC(C)N1CCN(c2ccc3nnnn3n2)CC1` | 3.152 |
| `O=C(c1ccncc1F)N1CCC(c2cc[nH]n2)CC1` | -1.97 |
| `CCCNC(=O)Nc1ccc(CN2CCOCC2)cc1` | 2.513 |
| `CCOCC(=O)NCC1(O)CCCc2ccccc21` (centres undefined) | 59.88 |
| `CC(CN)Cn1cccn1` (centres undefined) | 5.763 |
| `CC(C)N1CCC(NC(=O)Nc2ccccn2)C1` (centres undefined) | 2.792 |
| `Nc1nc(N2CCC(CO)CC2)cc([C@H]2C[C@@H](N)C2)n1` | 2.272 |
| `CC(C)(CNC(=O)CC1=CCCCC1)S(C)(=O)=O` | 20.39 |
| `CCC(C)(C#N)NC(=O)c1ccccc1` (centres undefined) | 11.92 |
| `Cn1ccnc1C(NC(=O)c1cnc(O)cn1)C1CC1` (centres undefined) | 4.36 |
| `Cc1ccc(C(=O)N2CCCC2c2ccc[nH]2)o1` (centres undefined) | 23.49 |
| `CCC(NC(=O)Cn1cc(Cl)c(C)n1)c1ccnn1C` (centres undefined) | 11.81 |
| `CC(C)c1ccoc1C(=O)N(C)c1cc(C#N)ccn1` | 63.91 |
| `CCC(C)(C)NCC(=O)Nc1ccc2c(c1)OCCO2` | 23.63 |
| `O=C(NCCn1cccc1)c1[nH]nc2c1CCCC2` | 42.9 |
| `Cc1ccc2c(c1)CC(=O)N2C` | 4.351 |
| `Cn1c(CCN)nc2c(F)cccc21` | 14.11 |
| `CCC(=O)[C@@H]1CCCN1` | -9.061 |

Repeated from the top, 6 entries:

* CN(C(=O)c1ccncc1)c1ncccc1Br : 0.8151%
* NC1CC12CCC(F)(F)CC2 (centres undefined) : 12.5%
* CN(C)C(CNC(=O)NCc1cc[nH]n1)c1ccsc1 (centres undefined) : 8.012%
* NCCNS(=O)(=O)c1ccccc1 : 6.508%
* COc1ccc(C(=O)NC2=NCCS2)cn1 : 16.09%
* CNc1nnc(-c2ccccc2)s1 : 60.59%